Anti-infective test results gathered from many reports (values: NIAID ChemDB through PubChem).

Shared fields: target-level tests; species: HIV-1; protein: Protease; read-out: IC50

An empty or dashed field is not shown.

compound | strain | method | value
COC(=O)N[C@H](C(=O)N[C@@H](Cc1ccccc1)[C@@H](O)CN(CCC(C)C)NC(=O)[C@@H](NC(=O)OC)C(C)C)C(C)C |  | substrate cleavage | 0.016 µM
CC(C)CCN(C[C@@H](O)[C@H](Cc1ccccc1)NC(=O)OCc1ccccc1)S(=O)(=O)Cc1ccccc1 |  | fluorescence | >10 µM
CC(C)CN(C[C@@H](O)C[C@@H](Cc1ccccc1)C(=O)N[C@H]1c2ccccc2C[C@H]1O)C(=O)OCc1ccccc1 |  | HPLC | 0.0085 µM
Cc1cccc(C)c1NCC(=O)N[C@@H](Cc1ccccc1)C[C@H](O)[C@H](Cc1ccccc1)NC(=O)O[C@H]1CO[C@H]2OCC[C@H]21 |  |  | <0.0005 µM
CC(C)C[C@H](NC(=O)[C@@H](N)CC(C)C)C(=O)N[C@@H](CCC(=O)O)C(=O)N[C@@H](Cc1ccc(O)cc1)C(=O)N[C@H](C=O)CO |  | HPLC | 0.12 µM
CC(C)(C)NC(=O)[C@@H]1CN(Cc2cncs2)CCN1C[C@@H](O)C[C@@H](Cc1ccccc1)C(=O)N[C@H]1c2ccccc2C[C@H]1O | IIIB | fluorescence | <0.0005 µM
COC(=O)[C@@H]1CCCCN1C(=O)[C@@H]1CSCN1C(=O)[C@@H](O)[C@H](Cc1ccccc1)NC(=O)[C@H](CS(C)(=O)=O)NC(=O)COc1cccc2ccccc12 |  |  | >0.05 µM
CO[C@@H]([C@@H](CC(C)[C@@H]1CC[C@]2(C)C3=CCC4C(C)(C)C(OC(=O)CCC(=O)O)CC[C@]4(C)C3CC[C@@]12C)OC(C)(C)C)C(C)(C)O |  | substrate cleavage / fluorescence | 70 µM
COC(=O)N[C@H](C(=O)N[C@@H](Cc1ccccc1)[C@@H](O)CN(CC1CCCCC1)NC(=O)[C@@H](NC(=O)OC)C(C)C)C(C)C |  | substrate cleavage | 0.84 µM
CC1(C)S[C@H](C(NC(=O)Cc2ccccc2)C(=O)NCc2ccccc2)N[C@H]1C(=O)NCCNC(=O)[C@@H]1N[C@@H](C(NC(=O)Cc2ccccc2)C(=O)NCc2ccc(CO)cc2)SC1(C)C |  |  | 0.0058 µM
CC(=O)O[C@H](CC(C)[C@@H]1CC[C@]2(C)C3=CCC4C(C)(C)C(=O)CC[C@]4(C)C3CC[C@@]12C)[C@H](OC(C)=O)C(C)(C)O |  | substrate cleavage / fluorescence | >100 µM
CC(C)[C@@H]1NC(=O)CCOCCCOc2ccc(cc2)C[C@@H]([C@H](O)CN2C[C@H]3CCCC[C@H]3C[C@H]2C(=O)NC(C)(C)C)NC1=O | IIIB | HPLC | 0.001 µM
CC[C@@H](C)[C@H](NC(=O)C1CCCN1C(=O)[C@@H](OC)[C@H](Cc1ccccc1)NC(=O)[C@H](CC(N)=O)NC(=O)CCc1ccccc1)C(=O)N[C@H](C(N)=O)C(C)C |  |  | >5 µM
COc1ccc(S(=O)(=O)N(CC(C)C)C[C@@H](O)[C@H](Cc2ccccc2)NC(=O)c2ccncc2)cc1 |  | fluorescence | 0.018 µM
CC(C[C@@H](OC(=O)CC(C)(C)CC(=O)O)[C@H](OC(=O)CC(C)(C)CC(=O)O)C(C)(C)O)[C@@H]1CC[C@]2(C)C3=CCC4C(C)(C)C(=O)CC[C@]4(C)C3CC[C@@]12C |  | substrate cleavage / fluorescence | >100 µM
COc1ccc(S(=O)(=O)N(CC(C)C)C[C@@H](O)[C@H](Cc2ccccc2)NC(=O)c2cc(C)ccc2C)cc1 |  | fluorescence | 0.007 µM
CN(C(=O)[C@H](Cc1cccc2ccccc12)NC(=O)CN1CCOCC1)[C@@H](Cc1nccs1)C(=O)N[C@@H](Cc1ccccc1)[C@H](O)C(=O)N1CSC[C@H]1C(=O)NC(C)(C)C |  | fluorescence | 0.0071 µM
Cc1c(O)cccc1C(=O)N[C@H](C(=O)N(c1ccccc1)N(CCO)C(=O)[C@@H]1CCCN1C(=O)OC(C)(C)C)[C@@H](C)O |  | HPLC | 205 µM
COC(=O)N[C@H](C(=O)N[C@@H](Cc1ccccc1)[C@@H](O)CN(Cc1ccc(C)cc1)NC(=O)[C@@H](NC(=O)OC)C(C)C)C(C)C |  | substrate cleavage | 0.019 µM
Cc1cc(O)cc(C)c1OCC(=O)N[C@@H](Cc1ccccc1)C[C@H](O)[C@H](Cc1ccccc1)NC(=O)O[C@H]1CO[C@H]2OCC[C@H]21 |  |  | <0.0005 µM
CCCCCCCCCCCCCCCc1cccc(O)c1C(=O)O |  | HPLC | 10.2 µM
CC(C)N(CC(=O)NC[C@]1(O)C2C3C4C2[C@](O)(CC(N)=O)C2C1[C@@H]3C[C@@H]42)C(=O)CN(C)C(=O)OCc1ccccc1 |  | substrate cleavage | 0.75 µM
Cc1cc(N)cc(C)c1S(=O)CC(=O)N[C@@H](Cc1ccccc1)C[C@H](O)[C@H](Cc1ccccc1)NC(=O)O[C@H]1CO[C@H]2OCC[C@H]21 |  |  | 0.031 µM
CC(C)N(CC(=O)N(CC(=O)NC[C@@]1(O)C2C3C4C2[C@@](O)(CNC(=O)CN(Cc2ccccc2)C(=O)CN(C(=O)CN(C)C(=O)OCc2ccccc2)C(C)C)C2C1[C@H]3C[C@H]42)Cc1ccccc1)C(=O)CN(C)C(=O)OCc1ccccc1 |  | substrate cleavage | 0.075 µM
CC(C)C[C@H](NC(=O)[C@@H](N)CC(C)C)C(=O)N[C@@H](CCC(=O)O)C(=O)O |  | HPLC | <1000 µM
CCCCCCCCCCCCCCCc1cccc(O)c1 |  | HPLC | >100 µM
CCc1c(C)c2c(c(C)c1C1=NC(=O)C(c3cc(-c4c(C)c5c(c(C)c4CC)[C@](C)(O)C[C@@H]5C)[nH]c3O)=C1)[C@H](C)C[C@]2(C)O |  |  | >10 µM
Cc1ccc(O)c(C)c1OCC(=O)N[C@@H](Cc1ccccc1)C[C@H](O)[C@H](Cc1ccccc1)NC(=O)O[C@H]1CO[C@H]2OCC[C@H]21 |  |  | <0.0005 µM
COC(C)[C@H](NC(=O)COc1cccc2ccccc12)C(=O)N[C@@H](Cc1ccccc1)[C@H](O)C(=O)N1CSC[C@H]1C(=O)NC(C)(C)C |  |  | <0.05 µM
CC(C[C@@H](OC(C)(C)C)[C@H](O)C(C)(C)O)[C@@H]1CC[C@]2(C)C3=CCC4C(C)(C)C(=O)C(O)=C[C@]4(C)C3CC[C@@]12C |  | substrate cleavage / fluorescence | >100 µM
COC(=O)N[C@H](C(=O)N[C@@H](Cc1ccccc1)[C@@H](O)CN(CC(C)C)NC(=O)[C@@H](NC(=O)OC)C(C)C)C(C)C |  | substrate cleavage | 0.041 µM
Cc1cccc(C)c1OCC(=O)N[C@@H](Cc1ccccc1)[C@@H](O)C[C@H](Cc1ccccc1)NC(=O)O[C@H]1CO[C@H]2OCC[C@H]21 |  |  | <0.0005 µM
CC(C)CN(C[C@@H](O)[C@H](Cc1ccccc1)NC(=O)OCc1ccccc1)S(C)(=O)=O |  | fluorescence | <10 µM
CC(C)[C@@H](C(=O)N[C@@H](Cc1ccccc1)[C@H](O)C(=O)N1CSC[C@H]1C(=O)NC(C)(C)C)N(C)C(=O)[C@H](Cc1cccc2ccccc12)NC(=O)CN1CCOCC1 |  | fluorescence | 0.0019 µM
Cc1c(O)cccc1C(=O)N[C@H](C(=O)N(c1ccccc1)N(CO)C(=O)[C@@H]1CCCN1C(=O)OC(C)(C)C)[C@@H](C)O |  | HPLC | >1000 µM
CC(C)[C@H](NC(=O)[C@@H]1CCCN1C(=O)[C@@H](O)[C@H](Cc1ccccc1)NC(=O)[C@H](CC(N)=O)NC(=O)CCc1ccccc1)C(N)=O |  |  | <5 µM
Cc1ccc(N)c(C)c1OCC(=O)N[C@@H](Cc1ccccc1)C[C@H](O)[C@H](Cc1ccccc1)NC(=O)O[C@H]1CO[C@H]2OCC[C@H]21 |  |  | <0.0005 µM
CS(=O)(=O)C[C@H](NC(=O)COc1cccc2ccccc12)C(=O)N[C@@H](Cc1ccccc1)[C@H](O)C(=O)N1CCC[C@H]1C(=O)Nc1ccc(O)cc1 |  |  | <5 µM
CC(C)[C@H](NC(=O)[C@H](Cc1cccc2ccccc12)NC(=O)CCN1CCOCC1)C(=O)N[C@@H](Cc1ccccc1)[C@H](O)C(=O)N1CSC[C@H]1C(=O)NC(C)(C)C |  | fluorescence | 0.0011 µM
CCOC(=O)Cc1ccc(-c2cc(O)c(SCCc3ccccc3)c(=O)o2)cc1 |  |  | 0.57 µM
CCOC(=O)c1cc(C)c(OCC(=O)N[C@@H](Cc2ccccc2)C[C@H](O)[C@H](Cc2ccccc2)NC(=O)O[C@H]2CO[C@H]3OCC[C@H]32)c(C)c1 |  |  | <0.0005 µM
CC(C)CCN(C[C@@H](O)[C@H](Cc1ccccc1)NC(=O)OCc1ccccc1)S(C)(=O)=O |  | fluorescence | <10 µM
CC(C[C@@H](O)[C@H](O)C(C)(C)O)[C@@H]1CC[C@]2(C)C3=CCC4C(C)(C)C(O)CC[C@]4(C)C3CC[C@@]12C |  | substrate cleavage / fluorescence | >100 µM
O=C(COc1ccccc1)N[C@@H](Cc1ccccc1)C[C@H](O)[C@H](Cc1ccccc1)NC(=O)O[C@H]1CO[C@H]2OCC[C@H]21 |  |  | <0.0005 µM
CC[C@H](C)[C@@H](C=O)NC(=O)[C@H](CO)NC(=O)[C@H](Cc1ccc(O)cc1)NC(=O)[C@H](CCC(=O)O)NC(=O)[C@@H](N)CC(C)C |  | HPLC | 0.55 µM
CSCC[C@H](NC(=O)c1cccc(O)c1C)C(=O)N(Cc1ccccc1)N(CCO)C(=O)[C@@H]1CCCN1C(=O)OC(C)(C)C |  | HPLC | 44 µM
CC1(C)CCN(C(=O)[C@@H](O)[C@H](Cc2ccccc2)NC(=O)[C@H](CC(N)=O)NC(=O)OCc2ccccc2)[C@@H]1C(N)=O |  |  | >0.05 µM
COc1ccc(S(=O)(=O)N(CC(C)C)C[C@@H](O)[C@H](Cc2ccccc2)NC(=O)c2ccc(CS(C)(=O)=O)cc2)cc1 |  | fluorescence | <1 µM
CC[C@@H](C)[C@H](NC(=O)C1CCCN1C(=O)[C@@H](O)[C@H](Cc1ccccc1)NC(=O)[C@H](CCS(C)(=O)=O)NC(=O)CCc1ccccc1)C(=O)N[C@H](C(N)=O)C(C)C |  |  | >0.05 µM
CN(C)CCNC(=O)C(NC(=O)Cc1ccccc1)[C@@H]1N[C@@H](C(=O)NCCNC(=O)[C@@H]2N[C@@H](C(NC(=O)Cc3ccccc3)C(=O)NCc3ccccc3)SC2(C)C)C(C)(C)S1 |  |  | 0.0085 µM

For reference, 7 entries again:

{"compound": "CC(C)C[C@H](NC(=O)[C@@H](N)CC(C)C)C(=O)N[C@@H](CCC(=O)O)C(=O)N[C@@H](Cc1ccc(O)cc1)C(=O)N[C@H](C=O)CO", "method": "HPLC", "value": "0.12 µM"}
{"compound": "COC(C)[C@H](NC(=O)COc1cccc2ccccc12)C(=O)N[C@@H](Cc1ccccc1)[C@H](O)C(=O)N1CSC[C@H]1C(=O)NC(C)(C)C", "value": "<0.05 µM"}
{"compound": "CC(C)CN(C[C@@H](O)C[C@@H](Cc1ccccc1)C(=O)N[C@H]1c2ccccc2C[C@H]1O)C(=O)OCc1ccccc1", "method": "HPLC", "value": "0.0085 µM"}
{"compound": "Cc1c(O)cccc1C(=O)N[C@H](C(=O)N(c1ccccc1)N(CCO)C(=O)[C@@H]1CCCN1C(=O)OC(C)(C)C)[C@@H](C)O", "method": "HPLC", "value": "205 µM"}
{"compound": "COc1ccc(S(=O)(=O)N(CC(C)C)C[C@@H](O)[C@H](Cc2ccccc2)NC(=O)c2ccncc2)cc1", "method": "fluorescence", "value": "0.018 µM"}
{"compound": "CC(C)(C)NC(=O)[C@@H]1CN(Cc2cncs2)CCN1C[C@@H](O)C[C@@H](Cc1ccccc1)C(=O)N[C@H]1c2ccccc2C[C@H]1O", "strain": "IIIB", "method": "fluorescence", "value": "<0.0005 µM"}
{"compound": "CC(C)CCN(C[C@@H](O)[C@H](Cc1ccccc1)NC(=O)OCc1ccccc1)S(=O)(=O)Cc1ccccc1", "method": "fluorescence", "value": ">10 µM"}

Lines come from different laboratories, so protocols vary. ICn is the concentration giving n% inhibition.